Test results: publication PMC12274840 (The Journal of Biological Chemistry, 2025)

Test system: E. coli KA797 cells carrying BlaC position 105 library
Assay type: cell-based, Escherichia coli
[1] = AA 105 Ala (BlaC I105A), relative to WT Ile
[2] = AA 105 Arg (BlaC I105R), relative to WT Ile
[3] = AA 105 Asn (BlaC I105N), relative to WT Ile
[4] = AA 105 Asp (BlaC I105D), relative to WT Ile
[5] = AA 105 Cys (BlaC I105C), relative to WT Ile
[6] = AA 105 Gln (BlaC I105Q), relative to WT Ile
[7] = AA 105 Glu (BlaC I105E), relative to WT Ile
[8] = AA 105 Gly (BlaC I105G), relative to WT Ile
[9] = AA 105 His (BlaC I105H), relative to WT Ile
[10] = AA 105 Ile (BlaC WT, reference)
[11] = AA 105 Leu (BlaC I105L), relative to WT Ile
[12] = AA 105 Lys (BlaC I105K), relative to WT Ile
[13] = AA 105 Met (BlaC I105M), relative to WT Ile
[14] = AA 105 Phe (BlaC I105F), relative to WT Ile
[15] = AA 105 Pro (BlaC I105P), relative to WT Ile
[16] = AA 105 Ser (BlaC I105S), relative to WT Ile
[17] = AA 105 Thr (BlaC I105T), relative to WT Ile
[18] = AA 105 Trp (BlaC I105W), relative to WT Ile
[19] = AA 105 Tyr (BlaC I105Y), relative to WT Ile
[20] = AA 105 Val (BlaC I105V), relative to WT Ile

CC1(C)[C@H](C(=O)O)N2C(=O)C[C@H]2S1(=O)=O [sulbactam]
Fi, Replicate 1 (relative fitness) [1]: 0.112
Fi, Replicate 2 (relative fitness) [1]: -0.179
Fi, Replicate 3 (relative fitness) [1]: 0.000672
Fi, Replicate 1 (relative fitness) [2]: 0.089
Fi, Replicate 2 (relative fitness) [2]: -0.130
Fi, Replicate 3 (relative fitness) [2]: 0.039
Fi, Replicate 1 (relative fitness) [3]: 0.405
Fi, Replicate 2 (relative fitness) [3]: 0.102
Fi, Replicate 3 (relative fitness) [3]: -0.006
Fi, Replicate 1 (relative fitness) [4]: -0.017
Fi, Replicate 2 (relative fitness) [4]: -0.193
Fi, Replicate 3 (relative fitness) [4]: 0.029
Fi, Replicate 1 (relative fitness) [5]: 0.011
Fi, Replicate 2 (relative fitness) [5]: -0.341
Fi, Replicate 3 (relative fitness) [5]: 0.318
Fi, Replicate 1 (relative fitness) [6]: 0.237
Fi, Replicate 2 (relative fitness) [6]: -0.273
Fi, Replicate 3 (relative fitness) [6]: 0.247
Fi, Replicate 1 (relative fitness) [7]: 0.278
Fi, Replicate 2 (relative fitness) [7]: -0.187
Fi, Replicate 3 (relative fitness) [7]: -0.065
Fi, Replicate 1 (relative fitness) [8]: 0.119
Fi, Replicate 2 (relative fitness) [8]: -0.211
Fi, Replicate 3 (relative fitness) [8]: 0.160
Fi, Replicate 1 (relative fitness) [9]: 0.365
Fi, Replicate 2 (relative fitness) [9]: -0.009
Fi, Replicate 3 (relative fitness) [9]: 0.044
Fi, Replicate 1 (relative fitness) [10]: 0.000
Fi, Replicate 2 (relative fitness) [10]: 0.000
Fi, Replicate 3 (relative fitness) [10]: 0.000
Fi, Replicate 1 (relative fitness) [11]: 0.258
Fi, Replicate 2 (relative fitness) [11]: -0.062
Fi, Replicate 3 (relative fitness) [11]: 0.106
Fi, Replicate 1 (relative fitness) [12]: 0.030
Fi, Replicate 2 (relative fitness) [12]: -0.083
Fi, Replicate 3 (relative fitness) [12]: 0.180
Fi, Replicate 1 (relative fitness) [13]: 0.135
Fi, Replicate 2 (relative fitness) [13]: -0.055
Fi, Replicate 3 (relative fitness) [13]: -0.126
Fi, Replicate 1 (relative fitness) [14]: 0.325
Fi, Replicate 2 (relative fitness) [14]: 0.093
Fi, Replicate 3 (relative fitness) [14]: 0.197
Fi, Replicate 1 (relative fitness) [15]: 0.163
Fi, Replicate 2 (relative fitness) [15]: -0.102
Fi, Replicate 3 (relative fitness) [15]: 0.107
Fi, Replicate 1 (relative fitness) [16]: 0.265
Fi, Replicate 2 (relative fitness) [16]: -0.123
Fi, Replicate 3 (relative fitness) [16]: 0.107
Fi, Replicate 1 (relative fitness) [17]: 0.112
Fi, Replicate 2 (relative fitness) [17]: -0.113
Fi, Replicate 3 (relative fitness) [17]: 0.036
Fi, Replicate 1 (relative fitness) [18]: 0.339
Fi, Replicate 2 (relative fitness) [18]: 0.073
Fi, Replicate 3 (relative fitness) [18]: 0.243
Fi, Replicate 1 (relative fitness) [19]: 0.274
Fi, Replicate 2 (relative fitness) [19]: -0.056
Fi, Replicate 3 (relative fitness) [19]: 0.045
Fi, Replicate 1 (relative fitness) [20]: 0.278
Fi, Replicate 2 (relative fitness) [20]: 0.017
Fi, Replicate 3 (relative fitness) [20]: 0.069

Where two headings read alike, the source gives them in different places.
